Assay results: paper PMC5741678, “Specificity Characterization of SLA Class I Molecules Binding to Swine-Origin Viral Cytotoxic T Lymphocyte Epitope Peptides in Vitro” (2017)

Target: partner chain of the complex shown
Experiment: ELISA
Settings: parent: 0.73; read off a plot

B1: unnamed (protein)
parent chain 1: ENALLVALF
parent chain 2: GPHSLSYFYTAVSRPDRGDSRFIAVGYVDDTQFVRFDNYAPNPRMEPRVPWIQQEGQEYWDRETRNVKETAQTYGVGLNTLRGYYNQSEAGSHTLQSMYGCYLGPDGLLLHGYRQDAYDGADYIALNEDLRSWTAADMAAQITKRKWEAADEAERRRSYLQGLCVESLRRYLEMGKDTLQRAEPPKTHVTRHPSSDLGVTLRCWALGFYPKEISLTWQREGQDQSQDMELVETRPSGDGTFQKWAALVVPPGEEQSYTCHVQHEGLQEPLTLRWD
parent chain 3: VARPPKVQVYSRHPAENGKPNYLNCYVSGFHPPQIEIDLLKNGEKMNAEQSDLSFSKDWSFYLLVHTEFTPNAVDQYSCRVKHVTLDKPKIVKWDRDH
  response (relative OD value): 3.4
